tested on: Nc1ncnc2c1ncn2[C@@H]1O[C@H](COP(=O)(O)OP(=O)(O)OP(=O)(O)O)[C@@H](O)[C@H]1O; assay: purified protein

Substance | Km [µM] | kcat [s⁻¹]
BaMV helicase-like domain (of BaMV replicase) (Bamboo mosaic virus; K603A) | 161 ± 11 | 61
BaMV helicase-like domain (of BaMV replicase) (Bamboo mosaic virus; K610A) | 126 ± 6 | 58
BaMV helicase-like domain (of BaMV replicase) (Bamboo mosaic virus; R597A) | 137 ± 6 | 49
